Data as given in publication PMC13379085 (PLOS Neglected Tropical Diseases, 2026).

Key:
[1] = system: Intracellular L. donovani amastigotes; assay: Luminescence-based assay of intracellular L. donovani burden in THP-1 macrophages; type: cell-based, Leishmania donovani; conditions: host-directed effect vs cytotoxicity in THP-1
Method: Luminescent strains, L. donovani LV82 expressing firefly luciferase (a kind gift from Dr. Abhay Satoskar, Ohio State University) and L. mexicana (NR-51210, ATCC) expressing renilla luciferase were used to evaluate the effect of the compounds in intracellular and extracellular conditions. Wild-type L. donovani LV82 (ATCC) were used for Giemsa staining based experiments. All parasites were cultured at 25°C and 5% CO2 in M199 media (Corning) supplemented with 10% FBS, 1% Penicillin/Streptomycin, and Hemin (0.01 mg/mL), and used in experiments up to passage 15.
THP-1 cells were seeded in a 96 well plate (25,000 cells/well) overnight then differentiated with 150 nM phorbol 12-myristate 13-acetate (PMA) over 72 hours (S1 Fig). […] Briefly, promastigotes of a known cell density were resuspended in RPMI media (with 10% FBS, 1% P/S and 0.05 mM β-mercaptoethanol) and incubated with adhered THP-1 cells over 18 hours. After infection, cells were washed three times with fresh media to remove extracellular promastigotes.
Infected macrophages were then treated with compounds solubilized in DMSO ranging from 0.1-10 µM in concentrations. After 72 hours of treatment, the viability of the amastigotes within macrophages was determined using Promega firefly luminescence assay (Cat E1500) or Pierce Renilla luciferase assay (Cat 16166) for L. donovani and L. mexicana strains, respectively. Briefly, media was removed, and cells were lysed with the assay lysis buffer. The luciferase substrate was then incubated with the lysed cells for 10 min at room temperature and luminescence of live Leishmania was measured in a white opaque 96 well plate using a Biotek plate reader.

[2] = system: Intracellular L. donovani amastigotes; assay: Image-based Giemsa staining of intracellular L. donovani in bone marrow derived macrophages; type: cell-based, Leishmania donovani; conditions: 72 hr LC50 THP-1 / Giemsa IC50 L. donovani
Method: (§1) Bone marrow derived macrophages (BMDMs) were isolated from BALB/c mice and cultured as previously described. […] Completely differentiated BMDMs are obtained after 7 days of culture with media change every 2 days. Harvested cells are seeded onto 10 mm glass cover slips at 5 x 10^5 cells/ well of a 24 well plate in DMEM media (without LCM) and allowed to adhere overnight. BMDM cells are then infected overnight with LV82 L. donovani or L. mexicana (NR-51210) at a multiplicity of infection of 10. After infection, cells were washed three times with fresh media to remove extracellular promastigotes and treated with compounds for a 72-hour incubation. BMDM cells were then washed with phosphate buffered saline, fixed with ice-cold methanol, and stained with Giemsa (5% v/v in water). The cover slips with stained cells are mounted onto glass slides and imaged on EVOS XL (100X, Thermo Fisher Scientific). Leishmania amastigotes per 100 macrophages were determined in a blinded manner.

[3] = system: Intracellular L. mexicana amastigotes; type: cell-based, Leishmania mexicana; conditions: 72 hr LC50 THP-1 / Giemsa IC50 L. mexicana
Method: as §1

Row | Compound | Selectivity 24h LC50/ Lum IC50 [1] | Therapeutic Index LC50/ IC50 (L. donovani) [2] | L. mexicana Therapeutic Index LC50/ IC50 [3]
1 | Nc1ccc(CNC2CCN(c3ccc(-n4nc(C(F)(F)F)cc4-c4ccc(-c5ccc(C(F)(F)F)cc5)cc4)cc3)C2)cc1 (centres unmarked) [Compound 23] | 14.8 | 8 | 
2 | NC1CCN(c2ccc(-n3nncc3-c3ccc(C(F)(F)F)cc3)cc2)C1 (centres unmarked) [Compound 134] |  |  | 40
3 | O=C(Nc1ccc(-n2cc(C(F)(F)F)nc2-c2ccc(-c3ccccc3)cc2)cc1)C1CCN(Cc2ccccc2)C1 (centres unmarked) [Compound 86] | 16.0 | 14 | 
4 | Oc1ccccc1CN1CCC(Nc2ccc(-n3nc(C(F)(F)F)cc3-c3ccc(-c4ccc(C(F)(F)F)cc4)cc3)cc2)C1 (centres unmarked) [Compound 91] | >36.1 | 22 | 
5 | NCC(=O)Nc1ccc(-n2ccnc2-c2ccc(-c3ccc(C(F)(F)F)cc3)cc2)cc1 [Compound 158] | 81.0 | 29 | 
6 | O=C(CNCc1cccc(F)c1)Nc1ccc(-n2cc(C(F)(F)F)nc2-c2ccc(-c3ccc(C(F)(F)F)cc3)cc2)cc1 [Compound 197] |  |  | >176
7 | N#Cc1ccc(CNCC(=O)Nc2ccc(-n3nc(C(F)(F)F)cc3C3CCCCC3)cc2)cc1 [Compound 354] |  |  | 6
8 | NCC(=O)Nc1ccc(-n2cc(C(F)(F)F)nc2-c2ccc(-c3ccccc3)cc2)cc1 [Compound 50] | 16.0 | 5 | 
9 | FC(F)(F)c1ccc(-c2ccc(-c3cc(C(F)(F)F)nn3-c3ccc(NC4CCNC4)cc3)cc2)cc1 (racemic) [Compound 25] | 43.8 | 2 | 
10 | N#Cc1cccc(CN2CCC(Nc3ccc(-n4nc(C(F)(F)F)cc4-c4ccc(-c5ccc(C(F)(F)F)cc5)cc4)cc3)C2)c1 (centres unmarked) [Compound 53] |  |  | >428
11 | Oc1ccc(CNC2CCN(c3ccc(-n4nc(C(F)(F)F)cc4C4CCCCC4)cc3)CC2)cc1 [Compound 319] | 8.1 | 2 | 
12 | CC(C)(C)C#Cc1ccc(-c2cc(C(F)(F)F)nn2-c2ccc(N3CCNCC3)cc2)cc1 [Compound 44] | 8.1 | 14 | 
